Assay results published in doi:10.1101/571406.

Target: Lsr2BD (Mycobacterium tuberculosis H37Rv) (UniProt P9WIP7)
Assay: fluorescence anisotropy

AATTCGGCAAAATCGGTAAG (double strand) [leuS site, Alexa 488]
pKd: 6.40

pKd: −log10 of the molar value. The exact form of at least one protein or probe is not confirmed.
